Results of unrelated studies side by side (data: NIAID ChemDB).

All rows: growth or infection tests; agent: HIV-1; read-out: inhibition

Inhibition is in % at the dose shown (toxicity tests: loss of growth or viability). Neighbouring rows are from separate reports. An empty or dashed field is not shown.

| SMILES | method | strain | dose | cells | mutations | value |
|---|---|---|---|---|---|---|
| CC1(C)[C@@H](O[C@H]2O[C@H](C(=O)O)[C@@H](O)[C@H](O)[C@H]2O[C@@H]2O[C@H](C(=O)O)[C@@H](O)[C@H](O)[C@H]2O)CC[C@]2(C)[C@H]3C(=O)C=C4[C@@H]5C[C@@](C)(CO)CC[C@]5(C)CC[C@@]4(C)[C@]3(C)CC[C@@H]12 | cytopathic effect / MTT | IIIB | 160 µM | MT-4 | - | 57.4% |
| O=S(=O)(O)c1ccc(-c2c3nc(c(-c4ccc(S(=O)(=O)O)cc4)c4ccc([nH]4)c(-c4ccc(S(=O)(=O)O)cc4)c4nc(c(-c5ccccc5)c5ccc2[nH]5)C=C4)C=C3)cc1 | β-galactosidase | IIIB | 5 µg/mL | MAGI | - | 48% |
| O=C(C(=O)N1CCN(C(=O)c2ccoc2)CC1)c1c[nH]c2cccc(F)c12 | luciferase | - | 10 µM | HeLa + HELA CD4+/CCR5 | - | >98% |
| Nc1nc(Cl)c2ncn([C@@H]3O[C@H](CO)C[C@@H]3F)c2n1 | cytopathic effect / XTT | LAI | 10 µM | ATH-8 + ATH8 | - | 33% |
| CC1(C)CC[C@]2(C(=O)NCC(=O)O)CC[C@]3(C)C(=CC[C@@H]4[C@@]5(C)C[C@@H](O)[C@H](O)C(C)(C)[C@@H]5CC[C@]43C)[C@@H]2C1 | p24 / ELISA | pNL4-3 | 25 µM | MT-2 | - | -30.7% |
| OC[C@H]1O[C@@H](n2cnc3c(N4CC[C@@H](O)C4)ncnc32)C[C@H]1O | visual reading / cell fusion | IIIB | 10 µM | CEM-SS | - | 0% |
| Cc1ccc(-c2ccc3c(c2)C=C(C(=O)Nc2ccc(C[N+](C)(C)C4CCOCC4)cc2)CCC3)cc1 | p24 | TB7 CLADE C | 1 µM | PBMC | - | 100% |
| O=c1ccn([C@H]2C=CC[C@@H](CO)O2)c(=O)[nH]1 | ELISA | IIIB | 100 µM | MT-4 | - | 0% |
| c1ccc2c(-c3ccc(-c4ccc(-c5ccc(-c6cccc7ccccc67)s5)c5ccccc45)s3)cccc2c1 | p24 / ELISA / antigen | IIIB | 1 µM | C8166 | - | 45.45% |
| Nc1ncnc2c1ncn2[C@@H]1O[C@H](CO)[C@H]1N | antigen | - | 3 µg/mL | MT-4 | - | 83% |
| Nc1ccn([C@@H]2C=CC[C@@H](CO)O2)c(=O)n1 | ELISA | IIIB | 100 µM | MT-4 | - | 0% |
| N=C1Sc2ccccc2C2=NCCCN12 | β-galactosidase | 92HT599 | 6.31 µM | TZM-bl | - | 90% |
| Cc1cn([C@H]2C[C@@H](O)[C@@H](CO)O2)c(=O)nc1N1CCCC1 | XTT / cell fusion | IIIB | 10 µM | CEM-SS | - | 0% |
| Cc1cn([C@H]2CC=C[C@@H](CO)O2)c(=O)[nH]c1=O | ELISA | IIIB | 100 µM | MT-4 | - | 0% |
| Cc1ccc(C)c(NS(=O)(=O)c2cc(C(=O)NCc3ccccn3)ccc2Cl)c1 | p24 | Clinical isolate | 0.8 µM | C8166 | AZT multi-resistant | 90% |
| Nc1ccn([C@@H]2CC[C@H](CO)O2)c(=O)n1 | cytopathic effect / MTT | IIIB | 1.2 µM | MT-2 | - | 17% |
| c1cc(CNCCCNC2CCCCC2)cc(CNc2nc(N3CCNCC3)nc3nc[nH]c23)c1 | luciferase | IIIB | 10 µM | TZM-bl | - | 12% |
| CN1C(=O)N(C)C(=O)C2(C1=O)[C@@H](c1ccco1)CC(=O)C[C@H]2[C@H]1COC(C)(C)O1 | MTT | NL4-3 | 10 µM | SupT1 | - | 56% |
| N#Cc1cc(Cl)cc(Oc2c(Cl)ccc3c2cnn3Cc2[nH]nc3ncccc23)c1 | - | - | 0.015 µM | MT-4 | K103N | >95% |
| CCOC(=O)/C=C/c1ccc(OC(=O)CCC(=O)Oc2c(C)c(C)c3c(c2C)CC[C@@](C)(CCC[C@H](C)CCC[C@H](C)CCCC(C)C)O3)cc1 | - | BaL | 1 µM | Macrophage + Monocytes/macrophages | - | 25% |
| CC(C)[C@@H](NC(=O)CCCCCCCCCCNC(=O)[C@]12CCC(C)(C)C[C@H]1C1=CC[C@@H]3[C@@]4(C)C[C@@H](O)[C@H](O)C(C)(C)[C@@H]4CC[C@@]3(C)[C@]1(C)CC2)C(=O)O | p24 / ELISA | pNL4-3 | 25 µM | MT-2 | - | 78.8% |
| O=C(C(=O)N1CCN(C(=O)c2ccccc2SCc2ccccc2)CC1)c1c[nH]c2cccc(Cl)c12 | luciferase | - | 10 µM | HeLa + HELA CD4+/CCR5 | - | 89% |
| CC(C)c1cnn2c(NCc3ccc(-c4ccccn4)cc3)nc(N[C@H](CO)C(C)O)nc12 | trypan blue | - | 0.05 µM | OM-10.1 | - | 50% |
| Cc1cn([C@@H]2CC=C[C@@H](CO)O2)c(=O)[nH]c1=O | ELISA | IIIB | 100 µM | MT-4 | - | 0% |
| CC1(C)CC[C@]2(C(=O)NCCCC(=O)O)CC[C@]3(C)C(=CC[C@@H]4[C@@]5(C)C[C@@H](O)[C@H](O)C(C)(C)[C@@H]5CC[C@]43C)[C@@H]2C1 | p24 / ELISA | pNL4-3 | 10 µM | MT-2 | - | -26.4% |
| Nc1ncnc2c1ncn2[C@@H]1O[C@H](CO)[C@@H]1O | antigen | - | 3 µg/mL | MT-4 | - | 99% |
| CCC(O)[NH+]1CC[NH+](C(O)CC)CC1.[Cl][Pt-2]([Cl])([Cl])([Cl])([Cl])[Cl] | luciferase / β-galactosidase | - | 3 µM | Jurkat cells | - | 38% |
| O=C(C(=O)N1CCN(C(=O)c2ccccc2)CC1CO)c1c[nH]c2cccc(F)c12 | luciferase | - | 10 µM | HeLa + HELA CD4+/CCR5 | - | 89% |
| Nc1cc(S(=O)(=O)O)c2ccccc2c1N | syncytia | - | 10 µg/mL | MOLT-3 | - | 62% |
| C=C1[C@H](n2cnc3c(N)ncnc32)O[C@@H]1CO | antigen | - | 10 µg/mL | MT-4 | - | 97% |
| COc1ccc(OCC2OC2COC(=O)c2ccc(O)c(OC)c2)cc1 | GFP / fluorescence | - | 75 µM | CEM-GFP | - | 6% |
| O=c1nc(N2CCCC2)ccn1[C@H]1CC(O)[C@@H](COP(=O)(O)O)O1 | visual reading / cell fusion | IIIB | 10 µM | CEM-SS | - | 0% |
| CCCCC(=O)OC[C@H]1O[C@@H](n2cnc3c(N)ncnc32)[C@@H]1CO | antigen | - | 10 µg/mL | MT-4 | - | 97% |
| C[C@H](NC(=O)CCCCCNC(=O)[C@]12CCC(C)(C)C[C@H]1C1=CC[C@@H]3[C@@]4(C)C[C@@H](O)[C@H](O)C(C)(C)[C@@H]4CC[C@@]3(C)[C@]1(C)CC2)C(=O)NCC(=O)O | p24 / ELISA | pNL4-3 | 10 µM | MT-2 | - | -70.2% |
| Cc1cn([C@H]2C[C@@H](O)[C@@H](CO)O2)c(=O)nc1N1C[C@H](O)[C@@H](O)C1 | XTT / cell fusion | IIIB | 10 µM | CEM-SS | - | 7.9% |
| N#Cc1cc(Cl)cc(Oc2c(Cl)ccc3c2nnn3Cc2[nH]nc3nc(N)ccc23)c1 | - | - | 0.003 µM | MT-4 | - | >95% |
| CC(C)[C@H](NC(=O)[C@H](CO)NC(=O)[C@@H](N)CSSCC(=O)O)C(=O)N[C@H](C(=O)N[C@@H](CSSCC(=O)O)C(=O)NCC(=O)O)[C@@H](C)O | p24 | IIIB | 1.32 µM | PBMC(PHA STIM.) + PBMC | - | 62% |
| C=C(C)[C@@H]1CC[C@]2(C(=O)NCCCCCCCC(=O)N[C@@H](CC(C)C)[C@@H](O)CC(=O)O)CC[C@]3(C)[C@H](CC[C@@H]4[C@@]5(C)CC[C@H](O)C(C)(C)[C@@H]5CC[C@]43C)[C@@H]12 | syncytia | LN7 | 10 µM | HeLa P4 + HeLa | - | 28% |
| Nc1ccn([C@H]2CC[C@@H](CO)O2)c(=O)n1 | cytopathic effect / trypan blue | LAV | 1 µM | MT-2 | - | 99% |
| Nc1ccn([C@H]2C=C[C@@H](CO)O2)c(=O)n1 | antigen | IIIB | 2 µM | MT-4 | - | 98% |
| CC(=O)CCC(=O)NCCCOCCOCCCNC(=O)CNC(=O)[C@H](CS)NC(=O)[C@@H](NC(=O)[C@@H](NC(=O)[C@H](CO)NC(=O)[C@@H](N)CS)C(C)C)[C@@H](C)O | p24 | BaL | 1.32 µM | PBMC(PHA STIM.) + PBMC | - | 35% |
| C[C@H]1[C@H](O)[C@@H](C)/C=C/C=C/C=C/C=C/C=C/C=C/C=C/[C@H](O[C@@H]2O[C@H](C)[C@@H](O)[C@H](N)[C@@H]2O)C[C@@H]2O[C@](O)(C[C@@H](O)C[C@@H](O)CC[C@H](O)[C@@H](O)C[C@@H](O)CC(=O)O[C@H]1C)C[C@H](O)[C@H]2C(=O)O | p24 / RT activity | MDR1385 Primary isolate X4 (SI) | 2.3 µM | PBMC | - | 90% |
| CC(C)[C@H](NC(=O)CCCNC(=O)[C@]12CCC(C)(C)C[C@H]1C1=CC[C@@H]3[C@@]4(C)C[C@@H](O)[C@H](O)C(C)(C)[C@@H]4CC[C@@]3(C)[C@]1(C)CC2)C(=O)O | p24 / ELISA | pNL4-3 | 25 µM | MT-2 | - | -30.2% |
| O=C(C(=O)N1CCN(C(=O)c2cscn2)CC1)c1c[nH]c2cccc(F)c12 | luciferase | - | 10 µM | HeLa + HELA CD4+/CCR5 | - | >98% |
| O=C(CCCCCCCCCCC(=O)Nc1cc(S(=O)(=O)O)cc2cc(S(=O)(=O)O)cc(O)c12)Nc1cc(S(=O)(=O)O)cc2cc(S(=O)(=O)O)cc(O)c12 | syncytia | - | 2 µg/mL | MOLT-3 | - | 49% |
| Cn1[nH]c(C(F)(F)F)c(C(=O)NCc2ccc(F)cc2)c(=O)c1=O | MTT | - | 10 µM | TZM-bl | - | -3.5% |
| NS(=O)(=O)c1ccc(NC(=O)c2ccccc2SSc2ccccc2C(=O)Nc2ccc(S(N)(=O)=O)cc2)cc1 | virus yield | NL4-3 | 1 µM | HeLa P4 + HeLa | - | 75% |
| CC(=O)N[C@@H](Cc1c[nH]c2ccccc12)C(=O)N[C@H](C(=O)N[C@@H](Cc1ccccc1)[C@H](O)[C@@H](O)[C@@H]1CCCN1C(=O)[C@@H](NC(=O)[C@H](Cc1c[nH]c2ccccc12)NC(C)=O)C(C)C)C(C)C | MTT | IIIB | 0.01 µM | MT-2 | - | <10% |
| O=C(NCc1ccc(F)cc1)c1c(C(F)(F)F)[nH]n(Cc2cccs2)c(=O)c1=O | MTT | - | 10 µM | TZM-bl | - | -7.5% |
| COC(=O)[C@H](C)NC(=O)[C@]12CCC(C)(C)C[C@H]1C1=CC[C@@H]3[C@@]4(C)C[C@@H](O)[C@H](O)C(C)(C)[C@@H]4CC[C@@]3(C)[C@]1(C)CC2 | p24 / ELISA | pNL4-3 | 10 µM | MT-2 | - | 36.4% |
| Nc1ncnc2c1ncn2[C@H]1C[C@@H](CO)O1 | antigen | - | 10 µg/mL | MT-4 | - | >99.9% |
| CC(C)[C@H](NC(=O)[C@H](Cc1ccccc1)C[C@H](O)[C@H](Cc1ccccc1)NC(=O)OC(C)(C)C)C(=O)N[C@@H](Cc1ccccc1)C(=O)N1CCOCC1 | RT activity | Z-84 | 0.1 µM | MT-2 | - | 90% |
| CCN(CC)C(=S)S | p24 | LAV | 0.0000075 µg/mL | H9 | - | 44% |
| CC(C)(C)n1[nH]c(C(F)(F)F)cc(=O)c1=O | MTT | - | 10 µM | TZM-bl | - | -11.6% |
| O=C(O[C@@H]1[C@H](OC(=O)c2ccccc2)[C@@H](CO)O[C@H]1n1cnc2c(N(C(=O)c3ccccc3)C(=O)c3ccccc3)ncnc21)c1ccccc1 | β-galactosidase | NL4-3 | 10 µM | HeLaP4 | - | 0% |
| Cc1cc(C=O)cc(C)c1Oc1cc(Nc2ccc(C#N)cc2)nc2ccccc12 | RT activity / ELISA | - | 1 µM | - | - | 34% |
| COC(=O)c1ccc(F)c2c(C(=O)C(=O)N3CCN(C(=O)c4ccccc4)C[C@H]3C)c[nH]c12 | luciferase | - | 10 µM | HeLa + HELA CD4+/CCR5 | - | >98% |
| CC1(C)[C@@H](O[C@H]2O[C@H](C(=O)O)[C@@H](O)[C@H](O)[C@H]2O[C@@H]2O[C@H](C(=O)O)[C@@H](O)[C@H](O)[C@H]2O)CC[C@]2(C)[C@H]3C=CC4=C5C[C@@](C)(C(=O)O)CC[C@]5(C)CC[C@@]4(C)[C@]3(C)CC[C@@H]12 | cytopathic effect / MTT | IIIB | 160 µM | MT-4 | - | 92.8% |
| Nc1nc(=O)n([C@@H]2CC[C@H](CO)O2)cc1F | cytopathic effect / MTT | IIIB | 1.2 µM | MT-2 | - | 96% |
| N#Cc1cc(Cl)cc(Oc2c(Cl)ccc3c2nnn3Cc2[nH]nc3ncccc23)c1 | - | - | 0.018 µM | MT-4 | Y181C | >95% |
| O=c1ccn([C@@H]2CC=C[C@@H](CO)O2)c(=O)[nH]1 | ELISA | IIIB | 100 µM | MT-4 | - | 0% |
| CC1CN(C(=O)c2ccccc2)CC(C)N1C(=O)C(=O)c1c[nH]c2cccc(F)c12 | luciferase | - | 10 µM | HeLa + HELA CD4+/CCR5 | - | >98% |
| Nc1nc2c(ncn2[C@H]2CC[C@@H](CO)O2)c(=O)[nH]1 | cytopathic effect / XTT | LAI | 20 µM | ATH-8 + ATH8 | - | 100% |

For reference, 7 entries again:

| SMILES | method | strain | dose | cells | mutations | value |
|---|---|---|---|---|---|---|
| CC(C)(C)n1[nH]c(C(F)(F)F)cc(=O)c1=O | MTT | - | 10 µM | TZM-bl | - | -11.6% |
| Nc1nc2c(ncn2[C@H]2CC[C@@H](CO)O2)c(=O)[nH]1 | cytopathic effect / XTT | LAI | 20 µM | ATH-8 + ATH8 | - | 100% |
| Nc1ncnc2c1ncn2[C@@H]1O[C@H](CO)[C@@H]1O | antigen | - | 3 µg/mL | MT-4 | - | 99% |
| NS(=O)(=O)c1ccc(NC(=O)c2ccccc2SSc2ccccc2C(=O)Nc2ccc(S(N)(=O)=O)cc2)cc1 | virus yield | NL4-3 | 1 µM | HeLa P4 + HeLa | - | 75% |
| O=C(O[C@@H]1[C@H](OC(=O)c2ccccc2)[C@@H](CO)O[C@H]1n1cnc2c(N(C(=O)c3ccccc3)C(=O)c3ccccc3)ncnc21)c1ccccc1 | β-galactosidase | NL4-3 | 10 µM | HeLaP4 | - | 0% |
| Nc1ccn([C@@H]2CC[C@H](CO)O2)c(=O)n1 | cytopathic effect / MTT | IIIB | 1.2 µM | MT-2 | - | 17% |
| Nc1nc(=O)n([C@@H]2CC[C@H](CO)O2)cc1F | cytopathic effect / MTT | IIIB | 1.2 µM | MT-2 | - | 96% |